Measured data: PubChem BioAssay AID504761 (Drosophila RNAi Screening Center, 2011)
The deposit covers about 22,000 reagents; shown is an unselected part of those with a known target gene and a result. Over the whole deposit, 116 (0.52%) got an active call. 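Calls depend on retest data that are not deposited; infection was ranked per plate without normalising between plates; the unit of the infection score is not given.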 Raw values vary from plate to plate and are shown uncorrected. Names joined by + are all predicted targets of the reagent. Not stated in the record: the amount of reagent, the time to read-out.

Screen: 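Genome-wide fly cell screen for genes dengue virus requires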 (primary screen)
Cell system: D.Mel-2 cells from Drosophila
Reagent: long dsRNA against Drosophila genes
Conditions: infection with dengue virus type 2; dose and infection time not stated
Read-out: 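Per well on two replicate plates, imaging gave the percent of cells positive for viral envelope protein, ranked by infection, and a nuclear count of cells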
Scale: infection score: higher = more virus-infected cells; cell count: higher = more cells in the well
Active means: 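Very low infection ranking in both replicate wells (chance probability at most 0.065), then a retest showing infection dropped 1.5-fold or more at p below 0.05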
Calls: active = confirmed: knock-down lowers infection; inactive = not picked or not confirmed

| target gene | dsRNA | infection score, replicate 1 | infection score, replicate 2 | cell count, replicate 1 | cell count, replicate 2 | Outcome |
| --- | --- | --- | --- | --- | --- | --- |
| Dbp45A | DRSC07395 | 11.1 | 1.81 | 5918 | 6195 | inactive |
| zip | DRSC04725 | 4.86 | 8.6 | 6358 | 5407 | inactive |
| zip | DRSC22489 | 1.99 | 16.5 | 5791 | 4457 | inactive |
| zip | DRSC28416 | 17.3 | 10 | 3799 | 4089 | inactive |
| CG32027 (retired record) | DRSC09571 | 1.7 | 0.72 | 6281 | 6239 | inactive |
| CG17780 | DRSC15265 | 5.74 | 10.2 | 4548 | 5174 | inactive |
| CG9449 | DRSC11073 | 2.26 | 6.42 | 6149 | 5809 | inactive |
| CG9449 | DRSC25691 | 3.32 | 11.8 | 6384 | 5900 | inactive |
| Uros1 | DRSC18191 | 4.55 | 1.43 | 6461 | 6424 | inactive |
| Uros1 | DRSC29316 | – | – | 370 | 359 | inactive |
| fred | DRSC00349 | 8.26 | 2.15 | 6904 | 6600 | inactive |
| fred | DRSC00599 | 3.17 | 13.7 | 6178 | 6439 | inactive |
| fred | DRSC00601 | 2.26 | 3.57 | 6183 | 6534 | inactive |
| fred | DRSC00602 | 3.08 | 2.03 | 6406 | 6467 | inactive |
| fred | DRSC21906 | 1.35 | 10.4 | 444 | 3708 | inactive |
| CG32371 | DRSC22209 | 2.78 | 7.14 | 6730 | 6777 | inactive |
| CG32371 | DRSC26049 | 5.72 | 3.03 | 5453 | 6540 | inactive |
| Dph4 | DRSC12318 | 2.74 | 1.67 | 6413 | 6339 | inactive |
| CG6733 | DRSC16103 | 3.39 | 1.77 | 6611 | 7000 | inactive |
| Xpc | DRSC07654 | 27.6 | 11.2 | 5887 | 5376 | inactive |
| CG11474 | DRSC04112 | 25.6 | 24.1 | 5876 | 5642 | inactive |
| Agpat4 | DRSC10446 | 2.29 | 2.02 | 5905 | 6440 | inactive |
| Agpat4 | DRSC26102 | 3.5 | 15.6 | 5948 | 5904 | inactive |
| Trf4-1 | DRSC17775 | – | 12.4 | 437 | 2806 | inactive |
| CG13050 | DRSC09931 | 0.85 | 0.63 | 5756 | 6152 | inactive |
| Mink | DRSC14291 | 4.36 | 11.7 | 6350 | 6559 | inactive |
| Cpr49Ae | DRSC07201 | 7.48 | 12.3 | 6033 | 5875 | inactive |
| Cpr49Ae | DRSC27662 | – | – | 429 | 282 | inactive |
| CG13258 | DRSC02244 | 14.4 | 17.2 | 4007 | 4631 | inactive |
| CG31781 (retired record) | DRSC02431 | 1.97 | 13.1 | 6909 | 6006 | inactive |
| CG31781 (retired record) | DRSC02432 | 3.63 | 5.32 | 6523 | 6707 | inactive |
| Spt6 | DRSC18836 | 21.7 | 29.1 | 4222 | 1917 | inactive |
| Indy-2 + CG33934 | DRSC15685 | 14.2 | 3.19 | 6229 | 6451 | inactive |
| Indy-2 + CG33934 | DRSC15686 | 2.38 | 1.36 | 882 | 6161 | inactive |
| eIF3a | DRSC12339 | 9.28 | 9.86 | 2068 | 1673 | inactive |
| eIF3a | DRSC28481 | 4.79 | 5.03 | 1399 | 716 | inactive |
| Cpes | DRSC04475 | 12.4 | 17.2 | 5566 | 4533 | inactive |
| Cpes | DRSC27503 | 9.54 | 5.61 | 5513 | 6173 | inactive |
| CG14511 | DRSC14863 | 4.38 | 1.77 | 5885 | 6893 | inactive |
| CG14511 | DRSC26574 | 4.54 | 2.73 | 6031 | 5933 | inactive |
| obst-E | DRSC02128 | 1.6 | 3 | 6258 | 6868 | inactive |
| obst-E | DRSC25834 | 13 | 13.3 | 5535 | 5906 | inactive |
| Sgp | DRSC02195 | 4.2 | 13.2 | 6245 | 5458 | inactive |
| CG4960 | DRSC15684 | 4.98 | 1.57 | 5787 | 6763 | inactive |
| CG4960 | DRSC27774 | 8.8 | 41.5 | 6533 | 4043 | inactive |
| CG7551 | DRSC10876 | 0.49 | 2.78 | 6295 | 6403 | inactive |
| CG3597 | DRSC00617 | 7.13 | 3.05 | 6463 | 6395 | inactive |
| CG3597 | DRSC24376 | 1.13 | 2.27 | 6832 | 6071 | inactive |
| Spn100A | DRSC14596 | 1.69 | 10.9 | 5804 | 5264 | inactive |
| RYBP | DRSC04117 | 13.2 | 23.6 | 6130 | 6258 | inactive |
| RYBP | DRSC27464 | 18.6 | 12.6 | 6679 | 6819 | inactive |
| CheB93a | DRSC15044 | 2.03 | 1.72 | 6357 | 6063 | inactive |
| Hrs | DRSC00549 | 2.4 | 1.03 | 5619 | 6226 | inactive |
| Hrs | DRSC27741 | 4.37 | 10.3 | 6062 | 3158 | inactive |
| tbc | DRSC20540 | 2.24 | 0.96 | 4285 | 4779 | inactive |
| tbc | DRSC23084 | 1.37 | 10.2 | 5708 | 6053 | inactive |
| tbc | DRSC29058 | 7.81 | 4.89 | 5112 | 5784 | inactive |
| CG3513 | DRSC00608 | 2.24 | 2.34 | 6423 | 6202 | inactive |

Just “cell count, replicate 2” (7 entries from above):
Uros1 [DRSC18191]: 6424
Uros1 [DRSC29316]: 359
fred [DRSC00349]: 6600
fred [DRSC00599]: 6439
fred [DRSC00601]: 6534
fred [DRSC00602]: 6467
fred [DRSC21906]: 3708
